Compound potency records, mixed from different reports. Data source: NIAID ChemDB in PubChem.

Shared fields: growth or infection tests; agent: Mycobacterium tuberculosis

A number after MIC or MFC names an inhibition level or a share of isolates. Neighbouring rows are from separate reports. An empty or dashed field is not shown. Inhibition is in % at the dose shown (toxicity tests: loss of growth or viability). MIC bound: limit read from a one-dose screen. ECn: concentration that inhibits the pathogen or its effect by n%.

smiles | measure | tested at | method | strain or isolate | changes | result
CCN1C(=O)C(C)c2cc(C(=O)CN3CCN(c4ccccn4)CC3)ccc21 | MIC | - | visual reading / absorbance | H37Rv | - | 3.12 µg/mL
CC(C)[C@H]1CC[C@H]2[C@@H]3C=C[C@](C)(O)[C@H](O)C[C@]3(C)CC[C@]12C(=O)O | MIC | - | resazurin | CIBIN 99 | - | 50 µg/mL
CCOC(=O)c1[nH]c(-c2ccccc2)c(C(=O)OCC)c1-c1ccccc1 | MIC bound | - | BACTEC | H37Rv | - | >12.5 µg/mL
O=C1C(c2ccc([N+](=O)[O-])cc2)=[N+]([O-])c2ccccc21 | EC50 | - | MTT | H37Rv | - | 12.4 µM
CNP1(NC)=N[P@](NC)(N2CC2)=N[P@@](NC)(N2CC2)=N1 | MIC | - | BACTEC | H37Rv | - | ≥128 µg/mL
O=C1C(c2ccc(Oc3ccccc3)cc2)=[N+]([O-])c2cc3c(cc21)OCO3 | MIC | - | MTT | H37Rv | - | 50 µM
CO[C@H]1/C=C/O[C@@]2(C)Oc3c(C)c(O)c4c(O)c(c(/C=N/N5CCN(C6CCCC6)CC5)c(O)c4c3C2=O)NC(=O)/C(C)=C\C=C\[C@H](C)[C@H](O)[C@@H](C)[C@@H](O)[C@@H](C)[C@H](OC(C)=O)[C@@H]1C | MIC | - | - | L404 | - | 0.05 µg/mL
O=C(Nc1ccccc1)c1cc(S(=O)(=O)N2CCNC2=O)c(S)cc1Cl | MIC bound | - | resazurin | H37Rv | - | >6.25 µg/mL
COC(=O)Cc1cc(C2CCCCC2)nc2c(C3CCCCC3)cccc12 | MIC | - | - | H37Rv | - | >6.25 µg/mL
COC(=O)c1ccc(CCC2=CC(=O)C(Br)=CC2=O)cc1 | inhibition | 6.25 µg/mL | resazurin | H37Rv | - | 1%
COC(=O)c1ccnc2ccccc12 | MIC | - | - | H37Rv | - | >6.25 µg/mL
O=C(CCc1ccco1)c1ccc(Oc2ccccc2)c(O)c1 | MIC | - | resazurin | H37Rv | - | 10 µg/mL
CCN1C(=O)Cc2cc(C(=O)CN3CCN(c4noc5cccc(Cl)c45)CC3)ccc21 | MIC | - | visual reading / absorbance | H37Rv | - | 1.56 µg/mL
Oc1cc(C(O)CCc2ccco2)ccc1Oc1ccccc1 | MIC | - | resazurin | H37Rv | - | 4 µg/mL
C[C@H](c1ccccc1)N1C/C(=C\c2cccc3ccccc23)[C@@]2(ON=C(c3ccccc3)O2)[C@@]2(C1)ON=C(c1ccccc1)[C@@H]2c1cccc2ccccc12 | MIC | - | - | H37Rv | - | 8.7 µM
C=CCNc1nc2c(s1)c(C)c(O)c1ccccc12 | MIC bound | - | resazurin | H37Rv | - | >6.25 µg/mL
CO[C@H]1/C=C/O[C@@]2(C)Oc3c(C)c(O)c4c(O)c(c(/C=N/N5CCN(C)CC5)c(O)c4c3C2=O)NC(=O)/C(C)=C\C=C\[C@H](C)[C@H](O)[C@@H](C)[C@@H](O)[C@@H](C)[C@H](OC(C)=O)[C@@H]1C | MIC | - | resazurin | Clinical isolate | MDR | >12.5 µg/mL
C/C(=N\NC(=O)CCSCCC(=O)N/N=C(\C)c1ccccc1)c1ccccc1 | inhibition | 12.5 µg/mL | BACTEC | H37Rv | - | 0%
COc1ccc(CC2C3=C(CCCC3)CCN2c2cc3c(=O)c(C(=O)O)c4n(c3cc2[N+](=O)[O-])CS4)cc1 | MIC | - | agar | H37Rv | - | 5.87 µM
COc1ccc2c(c1)C(=O)C(c1ccc(Oc3ccccc3)cc1)=[N+]2[O-] | EC50 | - | MTT | H37Rv | - | 2.7 µM
Oc1cc(Cl)ccc1Oc1ccc(Cl)cc1Cl | MIC | - | resazurin | H37Rv | - | 12.5 µg/mL
CC(=O)O[C@H]1C[C@@]2(C)C(=C3CC=C(C)CC[C@@]31C)CC[C@@H]2C(C)C | MIC | - | resazurin | H37Rv | - | 100 µg/mL
Cc1ccc(CCC(O)c2ccc(Oc3ccccc3)c(O)c2)cc1 | MIC | - | resazurin | Clinical isolate | INH resistant | 6.25 µg/mL
Cc1cnc(C(=O)NCN2CCCC2)cn1 | MIC | - | - | PZA-susceptible | - | 100 µg/mL
NCCCCC(C(=O)NC(CO)C(=O)O)N(C(=O)OCc1ccccc1)C(=O)OCc1ccccc1 | inhibition | 12.8 µg/mL | BACTEC | H37Rv | - | 16%
C(=C\c1ccccc1)/CNc1cccc(Cn2ccnc2)c1 | MIC | - | - | 6431 | - | 8 µg/mL
CC1C(=O)Nc2ccc(C(=O)CN3CCN(c4noc5cc(Cl)ccc45)CC3)cc21 | MIC | - | visual reading / absorbance | H37Rv | - | 12.5 µg/mL
COc1cc(/C=C2\N=C(c3ccccc3)OC2=O)cc(OC)c1OC | inhibition | 12.5 µg/mL | BACTEC | H37Rv | - | 57%
CC(C)[C@H]1CC[C@@H]2[C@]1(C)CCC13CC[C@](C)(O1)[C@H](CO)[C@]23O | MIC | - | resazurin | H37Rv | - | 100 µg/mL
COc1ccc(C2=[N+]([O-])c3ccccc3C2=O)cc1 | MIC | - | MTT | H37Rv | - | 50 µM
CSC(=S)N/N=C\C(O)C(O)C(O)C(O)CO | inhibition | 128 µg/mL | BACTEC | H37Rv | - | 100%
Cc1onc(-c2c(F)cccc2F)c1C(=O)N1CCN(c2cc3c(=O)c(C(=O)O)c4n(c3cc2F)CS4)CC1 | MIC | - | agar | H37Rv | - | 11.23 µM
COc1ccc(-n2cc(CNC3c4ccccc4-c4ccccc43)nn2)cc1 | MIC99 | - | broth dilution | Specimen 192 | - | 136 µM
CCN(CC)CNC(=O)c1cnccn1 | MIC | - | - | MS6210 | - | 100 µg/mL
C=CC1=C(C)/C(=C/C2=C(C)C(CCC(=O)O)C(CC3=NC(/C=C4\NC(=O)C(C)=C4C=C)=C(C)C3CCC(=O)O)=N2)NC1=O | MIC | - | BACTEC | H37Rv | - | ≥128 µg/mL
CCCc1ccc2oc(-c3ccc(O)c(OC)c3)c(C)c2c1 | MIC | - | resazurin / absorbance | Clinical isolate 49 | - | 3.9 µg/mL
COc1cc(-n2cc(CSC3c4ccccc4-c4ccccc43)nn2)cc(OC)c1OC | MIC99 | - | broth dilution | H37Rv | - | 56.11 µM
C[C@H](c1ccccc1)N1C/C(=C/c2ccc(Cl)cc2Cl)[C@]2(ON=C(c3ccc(Cl)cc3)O2)C2(C1)ON=C(c1ccc(Cl)cc1)[C@H]2c1ccc(Cl)cc1Cl | MIC | - | - | H37Rv | - | 0.95 µM
CC(C)[C@H]1CC[C@H]2[C@@H]3C=C[C@](C)(O)CC[C@]3(C)CC[C@]12C(=O)O | MIC | - | resazurin | CIBIN 99 | - | 50 µg/mL
COc1cc(-n2cc(CS(=O)(=O)C3c4ccccc4-c4ccccc43)nn2)cc(OC)c1OC | MIC99 | - | broth dilution | Specimen 192 | - | 52.35 µM
NC(=O)c1cnccn1 | MIC | - | - | PZA-resistant | - | >300 µg/mL
C[C@H]1C=C[C@H]([C@H](N)C(=O)O)O1 | inhibition | 12.8 µg/mL | BACTEC | H37Rv | - | 20%
CN1CCN(CNC(=O)c2cnccn2)CC1 | MIC | - | - | ATCC 27294 | - | 300 µg/mL
O=C(O)c1c2n(c3cc(F)c(N4CCN(C(=O)c5ccco5)CC4)cc3c1=O)CS2 | MIC | - | agar | H37Rv | MDR-TB | 14.55 µM
O=C(O)c1ccnc2ccccc12 | MIC | - | - | H37Rv | - | >6.25 µg/mL
C(/C=C/c1ccccc1)=Nc1ccc(Cn2ccnc2)cc1 | MIC | - | - | 103471 | - | 16 µg/mL
O=C1Cc2cc(C(=O)CN3CCN(c4noc5ccccc45)CC3)ccc2N1 | MIC | - | visual reading / absorbance | H37Rv | - | 50 µg/mL
C(=C\c1ccccc1)/CNc1ccc(Cn2ccnc2)cc1 | MIC | - | - | 103471 | - | 1 µg/mL
O=c1c(O)c(-c2ccccc2)oc2cc(O)cc(O)c12 | inhibition | 12.5 µg/mL | BACTEC | H37Rv | - | 7%
CN1CCN(Cc2ccccc2NC/C=C/c2ccccc2)CC1 | MIC | - | - | B814 | - | 32 µg/mL
C/C=C/c1ccc2oc(-c3ccc(OC)c(OC)c3)c(C)c2c1 | MIC | - | resazurin / absorbance | H37Rv | - | 3.9 µg/mL
COc1ccc2c(c1)C(=O)C(c1ccc3cc(OC)ccc3c1)=[N+]2[O-] | EC50 | - | MTT | H37Rv | - | 2.8 µM
COC(=O)c1cc(C2CCCCC2)nc2ccccc12 | MIC | - | - | H37Rv | - | >6.25 µg/mL
CC(=O)C(NC(=O)C(C)C(O)C(C)NC(=O)C(NC(=O)c1nc(C(CC(N)=O)NCC(N)C(N)=O)nc(N)c1C)C(OC1OC(CO)C(O)C(O)C1(C)OC1OC(CO)C(O)C(O)(C(N)=O)C1O)c1cnc[nH]1)C(=O)NCCC1=NC(c2nc(C(N)=O)cs2)CS1 | MIC bound | - | BACTEC | H37Rv | - | ≤12.8 µg/mL
Cc1ccc(-n2cc(CS(=O)(=O)C3c4ccccc4-c4ccccc43)nn2)cc1 | MIC99 | - | broth dilution | H37Rv | - | 125 µM
CC(C)[C@H]1CC[C@H]2[C@@H]3C=CC4(C)CC[C@@]3(CC[C@]12C(=O)O)CO4 | MIC | - | resazurin | CIBIN 99 | - | 100 µg/mL
COC(=O)Cc1cc(C2C3CC4CC(C3)CC2C4)nc2ccccc12 | inhibition | 6.25 µg/mL | - | H37Rv | - | 10%
O=C(CCc1ccc(Cl)cc1)c1ccc(Oc2ccccc2)c(O)c1 | MIC | - | resazurin | H37Rv | - | 15 µg/mL
C[C@H](c1ccccc1)N1C/C(=C\c2ccc(Cl)cc2Cl)[C@@]2(ON=C(c3ccc(Cl)cc3)O2)[C@@]2(C1)ON=C(c1ccc(Cl)cc1)[C@@H]2c1ccc(Cl)cc1Cl | MIC | - | - | H37Rv | - | 0.49 µM
NP1(Oc2ccc(F)cc2)=NP(N)(Oc2ccc(F)cc2)=NP(Oc2ccc(F)cc2)(Oc2ccc(F)cc2)=N1 | MIC | - | BACTEC | H37Rv | - | ≥128 µg/mL
C[C@H](c1ccccc1)N1C/C(=C\c2ccc(Cl)cc2)C(=O)/C(=C/c2ccc(Cl)cc2)C1 | MIC | - | - | H37Rv | - | 27.88 µM
O=C1C=[N+]([O-])c2ccccc21 | EC50 | - | MTT | H37Rv | - | 5.7 µM
COc1cc2c(cc1OC)CN(c1cc3c(=O)c(C(=O)O)c4n(c3cc1F)CS4)CC2 | MIC | - | agar | H37Rv | - | 3.53 µM
COC(=O)c1cnc2ccccc2c1 | MIC | - | - | H37Rv | - | >6.25 µg/mL
O=C1NN(C(=O)c2ccccc2)C(c2ccccc2[N+](=O)[O-])c2c1c1ccccc1n2C(=O)c1ccccc1 | MIC bound | - | resazurin | H37Rv | - | >6.25 µg/mL
O=C(O)c1c(C2CCCCC2)nc2ccccc2c1C1CCCCC1 | inhibition | 6.25 µg/mL | - | H37Rv | - | 0%
NNC(=O)c1ccncc1 | MIC | - | - | Isolate UT1885 (katG S315T mutation) | - | 12 µg/mL
COS(=O)(=O)OC1(SC)C=C(c2ccccc2)SS1 | MIC bound | - | BACTEC | H37Rv | - | >12.5 µg/mL
CC(C)(C)OC(=O)NC1C2CN(c3cc4c(=O)c(C(=O)O)c5n(c4cc3[N+](=O)[O-])CS5)CC21 | MIC | - | agar | H37Rv | - | 0.4 µM
CCOC(=O)C1=C(Nc2ccc(Br)cc2)OC/C1=N\NC(=O)c1ccccc1O | MIC bound | - | BACTEC | H37Rv | - | >12.5 µg/mL
CN(CNC(=O)c1cnccn1)Cc1ccccc1 | MIC | - | - | PZA-resistant | - | 100 µg/mL
Nc1c(C(=O)Nc2ccc3c(c2)C(=O)c2ccccc2C3=O)ccc2c1C(=O)c1ccccc1C2=O | MIC bound | - | BACTEC | H37Rv | - | >12.5 µg/mL
CCN(CC)CNC(=O)c1cnc(N(CC)CC)cn1 | MIC | - | - | ATCC 27294 | - | 64 µg/mL
O=C(O)c1c2n(c3cc([N+](=O)[O-])c(N4CCN(Cc5ccc6c(c5)OCO6)CC4)cc3c1=O)CS2 | MIC | - | agar | H37Rv | MDR-TB | 1.57 µM
OC12c3ccccc3C1(N1CCOCC1)CCCCC21OCCCO1 | inhibition | 12.5 µg/mL | BACTEC | H37Rv | - | 15%
C[C@H](c1ccccc1)N1C[C@@]2(ON=C(c3ccc(Cl)cc3)[C@H]2c2ccc(Cl)cc2Cl)C2(ON=C(c3ccc(Cl)cc3)O2)[C@]2(C1)ON=C(c1ccc(Cl)cc1)[C@H]2c1ccc(Cl)cc1Cl | MIC | - | - | MDR-TB | - | 1.6 µM
CCCN(CCC)CNC(=O)c1cnccn1 | MIC | - | - | ATCC 35828 | - | 100 µg/mL
C[C@H](c1ccccc1)N1CC(=Cc2cccc3ccccc23)[C@]2(ON=C(c3ccc(Cl)cc3)O2)C2(C1)ON=C(c1ccc(Cl)cc1)[C@H]2c1cccc2ccccc12 | MIC | - | - | H37Rv | - | 1.98 µM
O=C(NCN1CCNCC1)c1cnccn1 | MIC | - | - | ATCC 35828 | - | 100 µg/mL
Cc1ccc(-n2cc(-c3ccc(Cl)cc3)c3c(NN)ncnc32)cc1 | MIC bound | - | BACTEC | H37Rv | - | ≤12.5 µg/mL
C/C=C/c1ccc2c(c1)[C@@H](C)[C@H](c1ccc(OC)cc1)O2 | MIC | - | resazurin / absorbance | Clinical isolate 57 | - | 7.8 µg/mL